How the values were obtained:
[1] = test system: prion conversion activity in ScMEF cells (recombinant mouse PrP substrate); assay: RT-QuIC prion conversion activity of lysates of long-term treated ScMEF cells; settings: AR-12 3 μM, tested until passage five after drug withdrawal, FIG. 6D
[2] = test system: prion conversion activity in ScN2a cells (recombinant mouse PrP substrate); assay: RT-QuIC prion conversion activity of lysates of long-term treated ScN2a cells; settings: FIG. 6B

Row | SMILES | prion conversion activity (RT-QuIC) [1] | prion conversion activity (RT-QuIC) ([2]; AR-12 3 μM, tested until passage five after drug withdrawal) | prion conversion activity (RT-QuIC) ([2]; AR-14 2 μM, until passage five after drug withdrawal)
1 | NCC(=O)Nc1ccc(-n2nc(C(F)(F)F)cc2-c2ccc3c(ccc4ccccc43)c2)cc1 [AR-12, 2-amino-N-(4-(5-(phenanthren-2-yl)-3-(trifluoromethyl)-1H-pyrazol-1-yl)phenyl)acetamide] | lost prion conversion activity | lost prion conversion activity | –
2 | NCCCC[C@H](N)C(=O)Nc1ccc(-n2nc(C(F)(F)F)cc2-c2ccc3c(ccc4ccccc43)c2)cc1 [AR-14] | – | – | prion conversion activity is lost

From patent publication US9974771B2 (priority 2016, dated 2018)
